Assay results as given in paper PMC2625307 (Journal of molecular biology, 2008).

Key:
IIIB = type: cell-based, HIV-1 group M; settings: PM1 cells, genetic distance to HXBc2 0.03060
SUMA d736-68 = type: cell-based, HIV-1 group M; settings: JC53BL-13 cells, genetic distance to HXBc2 0.18273
YU-2 env = type: cell-based, HIV-1 group M; settings: JC53BL-13 cells, genetic distance to HXBc2 0.16766
BaL = type: cell-based, HIV-1 group M; settings: PM1 cells, genetic distance to HXBc2 0.13532
YU2 gp120 = YU2 gp120 (Human immunodeficiency virus type 1 group M subtype B, UniProt P35961); assay: Contact surface area of gp120, YU2; set-up: species or system HIV-1
NL4.3 env = type: cell-based, HIV-1 group M; settings: JC53BL-13 cells, genetic distance to HXBc2 0.05769
WEAU 16-8M = type: cell-based, HIV-1 group M; settings: JC53BL-13 cells, genetic distance to HXBc2 0.20241

Compound | IC50 (IIIB) | IC50 (SUMA d736-68) | IC50 (YU-2 env) | IC50 (BaL) | Contact surface area of gp120, total (YU2 gp120; asymmetric unit molecule (1)) | Contact surface area of gp120, total (YU2 gp120; asymmetric unit molecule (2)) | IC50 (NL4.3 env) | IC50 (WEAU 16-8M)
CC(C)C[C@@H]1NC(=O)CNC(=O)[C@H](CC(C)C)NC(=O)[C@H](CO)NC(=O)[C@H](CCCCN)NC(=O)[C@@H]2CSSC[C@@H](C(=O)N[C@H](C(N)=O)C(C)C)NC(=O)[C@H](C)NC(=O)[C@@H]3CSSC[C@H](NC(=O)[C@H](Cc4ccccc4)NC(=O)[C@H](Cc4c[nH]cn4)NC(=O)[C@H](CC(C)C)NC(=O)[C@H](CC(N)=O)NC(=O)CCSSC[C@H](NC(=O)[C@H](CCCCN)NC(=O)CNC(=O)[C@H](CC(C)C)NC1=O)C(=O)N[C@@H](C)C(=O)NCC(=O)N[C@@H](CO)C(=O)N[C@@H](Cc1ccc(-c4ccccc4)cc1)C(=O)N3)C(=O)N[C@@H](CCC(N)=O)C(=O)N[C@@H](CC(C)C)C(=O)N[C@@H](CCCNC(=N)N)C(=O)N2 [CD4M33] | 12 nM | 4 nM | 210 nM | 120 nM | 527.6 Å^2 | 543.1 Å^2 | 5 nM | –
CC(C)C[C@@H]1NC(=O)CNC(=O)[C@H](CC(C)C)NC(=O)[C@H](CO)NC(=O)[C@H](CCCCN)NC(=O)[C@@H]2CSSC[C@@H](C(=O)N[C@H](C(N)=O)C(C)C)NC(=O)[C@H](C)NC(=O)[C@@H]3CSSC[C@H](NC(=O)[C@H](Cc4ccccc4)NC(=O)[C@H](Cc4c[nH]cn4)NC(=O)[C@H](CC(C)C)NC(=O)[C@H](CC(N)=O)NC(=O)CCSSC[C@H](NC(=O)[C@H](CCCNC(=N)N)NC(=O)CNC(=O)[C@H](CC(C)C)NC1=O)C(=O)N[C@@H](C)C(=O)N1CCC[C@@H]1C(=O)N[C@@H]([C@@H](C)O)C(=O)N[C@@H](Cc1ccccc1)C(=O)N3)C(=O)N[C@@H](CCC(N)=O)C(=O)N[C@@H](CC(C)C)C(=O)N[C@@H](CCCNC(=N)N)C(=O)N2 [[Phe^23]M47] | – | – | – | 33 nM | 397.2 Å^2 | 439.2 Å^2 | 4 nM | 47 nM
